A mixed list of measured activities; the numbers were collected in NIAID ChemDB.

Shared fields: tests in culture; species: Candida albicans; endpoint: zone

Neighbouring rows are from separate reports. Zones are inhibition diameters on agar.

{"smiles": "NC(=S)c1ccc(OC(=O)CNc2ccc(Cl)cc2)cc1", "strain": "ATCC 10231", "tested at": "100 µg/mL", "method": "agar diffusion / agar", "value": "20 mm"}
{"smiles": "CCC(C)CCCCCCCCCCC(=O)N[C@H]1C[C@@H](O)[C@@H]([n+]2cc[nH]c2)NC(=O)C2[C@@H](O)[C@@H](C)CN2C(=O)C(CO)NC(=O)C([C@H](O)C(O)c2ccc(O)cc2)NC(=O)NC(=O)[C@@H]2C[C@@H](O)CN2C(=O)[C@H]([C@@H](C)O)NC1=O", "strain": "IV", "tested at": "1 mg/mL", "method": "agar", "value": "22 mm"}
{"smiles": "COc1ccc(C2=CC(c3cc(OC)c(OC)c(OC)c3)NC(=S)N2)cc1OC", "strain": "DSM 70014", "tested at": "1 mg/mL", "method": "agar diffusion / agar", "value": "14 mm"}
{"smiles": "C#Cc1c(-c2ccccc2)c(C#N)c2nc(=O)c3c(-c4ccc(Cl)cc4)csc3n2c1N", "tested at": "1000 µg/mL", "value": "0 mm"}
{"smiles": "C/C=C/C1=CC2=CC(=O)[C@](C)(OC(=O)c3c(OC)cc(O)c(O)c3C)C(=O)C2=CO1", "strain": "ATCC 64548", "tested at": "0.1 µg/disc", "method": "agar diffusion", "value": "0 mm"}
{"smiles": "C#Cc1c(-c2ccc(C)cc2)c(C#N)c2nc(=O)c3c(-c4ccc(Cl)cc4)csc3n2c1N", "tested at": "1000 µg/mL", "method": "agar diffusion / agar", "value": "0 mm"}
{"smiles": "O=C(COc1ccc(-c2nc(-c3ccccc3)c(-c3ccccc3)s2)cc1)CN1CCCCC1", "strain": "ATCC 10231", "tested at": "100 µg/mL", "method": "agar diffusion / agar", "value": "19 mm"}
{"smiles": "CCC(C)CCCCCCCCCCC(=O)N[C@H]1C[C@@H](O)[C@@H](OC)NC(=O)C2[C@@H](O)[C@@H](C)CN2C(=O)C(CO)NC(=O)C([C@H](O)C(O)c2ccc(O)cc2)NC(=O)NC(=O)[C@@H]2C[C@@H](O)CN2C(=O)[C@H]([C@@H](C)O)NC1=O", "strain": "IV", "tested at": "1 mg/mL", "method": "agar", "value": "25 mm"}
{"smiles": "COc1ccc(C2=CC(c3cc(OC)c(OC)c(OC)c3)NC(=O)N2)cc1OC", "strain": "DSM 70014", "tested at": "1 mg/mL", "method": "agar diffusion / agar", "value": "15 mm"}
{"smiles": "CC(=O)Nc1ccc(Cl)cc1Sc1ncccc1[N+](=O)[O-]", "strain": "MTCC 227", "tested at": "100 µg/mL", "value": "14 mm"}
{"smiles": "COc1ccc(/C=c2\\sc3n(c2=O)C(c2cc(OC)c(OC)c(OC)c2)C=C(c2ccc(OC)c(OC)c2)N=3)cc1", "strain": "DSM 70014", "tested at": "1 mg/mL", "method": "agar diffusion / agar", "value": "14 mm"}
{"smiles": "CCOC(=O)c1sc(NC(=O)CC#N)c(C#N)c1C", "tested at": "1000 µg/mL", "method": "agar diffusion / agar", "value": "0 mm"}
{"smiles": "O=C(Cc1ccc(-c2nc(-c3ccccc3)c(-c3ccccc3)s2)cc1)CN1CCCC1", "strain": "ATCC 10231", "tested at": "100 µg/mL", "method": "agar diffusion / agar", "value": "22 mm"}
{"smiles": "CCC(C)CCCCCCCCCCC(=O)N[C@H]1C[C@@H](O)[C@@H](NCCN2CCOCC2)NC(=O)C2[C@@H](O)[C@@H](C)CN2C(=O)C(CO)NC(=O)C([C@H](O)C(NCCN2CCOCC2)c2ccc(O)cc2)NC(=O)NC(=O)[C@@H]2C[C@@H](O)CN2C(=O)[C@H]([C@@H](C)O)NC1=O", "strain": "IV", "tested at": "2 mg/mL", "method": "agar", "value": "17 mm"}
{"smiles": "Clc1ccc2c(c1)Sc1cccnc1N2CCCCN1c2ccc(Cl)cc2Sc2cccnc21", "strain": "MTCC 227", "tested at": "100 µg/mL", "value": "11 mm"}
{"smiles": "NC(=S)c1ccc(OC(=O)CN2CCCCC2)cc1", "strain": "ATCC 10231", "tested at": "100 µg/mL", "method": "agar diffusion / agar", "value": "22 mm"}
{"smiles": "C(=C\\CN1c2ccccc2Sc2cccnc21)/CN1c2ccccc2Sc2cccnc21", "strain": "MTCC 227", "tested at": "100 µg/mL", "value": "12 mm"}
{"smiles": "CCC(C)CCCCCCCCCCC(=O)N[C@H]1C[C@@H](O)[C@@H](SCC(=O)OC)NC(=O)C2[C@@H](O)[C@@H](C)CN2C(=O)C(CO)NC(=O)C([C@H](O)C(O)c2ccc(O)cc2)NC(=O)NC(=O)[C@@H]2C[C@@H](O)CN2C(=O)[C@H]([C@@H](C)O)NC1=O", "strain": "IV", "tested at": "2 mg/mL", "method": "agar", "value": "22 mm"}
{"smiles": "C#Cc1c(-c2ccccc2)c(C#N)c2nc(=O)c3c(-c4ccccc4)csc3n2c1N", "tested at": "1000 µg/mL", "value": "2 mm"}
{"smiles": "CCC(C)CCCCCCCCCCC(=O)N[C@H]1C[C@@H](O)[C@@H](Sc2ccccc2)NC(=O)C2[C@@H](O)[C@@H](C)CN2C(=O)C(CO)NC(=O)C([C@H](O)C(O)c2ccc(O)cc2)NC(=O)NC(=O)[C@@H]2C[C@@H](O)CN2C(=O)[C@H]([C@@H](C)O)NC1=O", "strain": "IV", "tested at": "2 mg/mL", "method": "agar", "value": "16 mm"}
{"smiles": "Fc1ccc2c(c1)Sc1cccnc1N2CCCCCCN1c2ccc(F)cc2Sc2cccnc21", "strain": "MTCC 227", "tested at": "100 µg/mL", "value": "13 mm"}
{"smiles": "CCC(C)CCCCCCCCCCC(=O)N[C@H]1C[C@@H](O)[C@@H](OC)NC(=O)C2[C@@H](O)[C@@H](C)CN2C(=O)C(CO)NC(=O)C([C@H](O)C(OC)c2ccc(O)cc2)NC(=O)NC(=O)[C@@H]2C[C@@H](O)CN2C(=O)[C@H]([C@@H](C)O)NC1=O", "strain": "IV", "tested at": "2 mg/mL", "method": "agar", "value": "18 mm"}
{"smiles": "Clc1ccc(COC(Cn2ccnc2)c2ccc(Cl)cc2Cl)c(Cl)c1", "strain": "MTCC 227", "tested at": "100 µg/mL", "value": "19 mm"}
{"smiles": "C#Cc1c(-c2ccc([N+](=O)[O-])cc2)c(C#N)c2nc(=O)c3c(-c4ccccc4)csc3n2c1N", "tested at": "1000 µg/mL", "method": "agar diffusion / agar", "value": "0 mm"}
{"smiles": "O=C(Cc1ccc(-c2nc(-c3ccccc3)c(-c3ccccc3)s2)cc1)CN1CCOCC1", "strain": "ATCC 10231", "tested at": "100 µg/mL", "method": "agar diffusion / agar", "value": "19 mm"}
{"smiles": "C#Cc1c(-c2ccc(Cl)cc2)c(C#N)c2nc(=O)c3c(C(=O)OCC)c(C)sc3n2c1N", "tested at": "1000 µg/mL", "method": "agar diffusion / agar", "value": "0 mm"}
{"smiles": "COc1ccc(NC(=O)CSC2NC(c3ccc4c(c3)OCO4)=CC(c3cc(OC)c(OC)c(OC)c3)N2)cc1", "strain": "DSM 70014", "tested at": "1 mg/mL", "method": "agar diffusion / agar", "value": "16 mm"}
{"smiles": "Cc1cc(O)c(C(C)C)cc1Cl", "strain": "AI", "tested at": "100 µg/mL", "method": "agar diffusion", "value": "30 mm"}
{"smiles": "COc1ccc(-c2cc(-c3cc(OC)c(OC)c(OC)c3)nc(NN)n2)cc1OC", "strain": "DSM 70014", "tested at": "1 mg/mL", "method": "agar diffusion / agar", "value": "16 mm"}
{"smiles": "N#Cc1c(-c2ccccc2)csc1NC(=O)c1cc2ccccc2[nH]c1=O", "tested at": "1000 µg/mL", "method": "agar diffusion / agar", "value": "16 mm"}